# Results of single-concentration screens

Measurements from “University of Dundee, Small-Polar-MMV Screening Library” (2021), ChEMBL document CHEMBL3988442.

Mtb glucose medium: 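Phenotypic screen: M. tuberculosis growth, glucose 7H9 medium, 3 days; the read-out is not stated. Tested at 50 µM. Higher reads as more growth inhibition (inferred: compounds with an IC50 in retests scored well above the rest). Of about 69,000 compounds tested this way, about 760 (1.1%) reached 50% or more in at least one test.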
Mtb cholesterol medium: 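Whole-cell growth test on Mycobacterium tuberculosis, read after 4 days in a medium based on cholesterol and the lipid DPPC; the read-out is not stated. Concentration: 50 µM. Direction is inferred from retests: higher values go with more growth inhibition. Size under these conditions: about 69,000 compounds, about 370 of them at 50% or above in at least one test.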

Values are the deposited “Percent Effect”, in %.
The controls that fix the scale are not given in the record; negative values are as filed.
This is part of a subset picked to be rich in strong results.
Two or more numbers in one place are separate tests of the same structure; such repeats can differ widely.
A dash means the value is not listed here; it may have been measured.

SMILES,Mtb glucose medium,Mtb cholesterol medium
CCn1nnc(NCc2ccc(-c3ccc(Br)cc3)o2)n1,33.54% and 60.24%,48.42%
Cc1nn(C)cc1S(=O)(=O)NCC(c1ccccc1)N1CCCCCC1.Cl (centres unmarked),-,33.41% and 89.95%
COc1cccc(-c2cc(C(=O)NCCn3nc(C)nc3C)[nH]n2)c1,20.62%,-
CCN1C(=O)C2(CCOCC2)c2cc(NC(=O)c3cc(C)n[nH]3)ccc21,-9.854% and -0.8897%,-
COC(=O)c1ccc(OCCn2cnc(C#N)n2)cc1,3.725%,-
O=C(c1cccs1)N1CCC2(CC1)CN(c1ccsc1)C(=O)CO2,-,-6.713% and 83.76%
O=C(O)[C@@H]1CN(Cc2ccc(-c3cc[nH]n3)s2)C[C@H]1C1CC1,30.78% and 55.92%,-
C1CCC(NC2CCCN(Cc3noc(C4CC4)n3)C2)C1 (centres unmarked),3.983% and 5.813%,-
CCCS(=O)(=O)NCCn1ccc(-c2cccs2)n1,-14.78%,-
NCCn1nc(C2CCN(C(=O)CC3CCCCC3)C2)c2nccnc21 (centres unmarked),-,3.245%
[H][C@@]12CCN(C[C@@H]1CC)[C@@H](CNCc1ccc(OC(F)(F)F)cc1)C2,59.35% and 65.97%,59.7%
CCOCCCn1c(NC(=O)c2ccc(C)nc2)nc2ccccc21,3.192%,-
O=C1N(Cc2ccc(F)cc2)CCCC12CCN(C1CCSCC1)C2 (centres unmarked),49.19% and 68.7%,-
CC(C)N(CCNC(=O)c1n[nH]c2ccccc12)C(C)C,-,-5.205%
CCOC1COC2(CCN(Cc3ccc4c(c3)OCO4)CC2)C1 (centres unmarked),-,70.51%
CC(C)(C)c1ncc(C(=O)NC(C(N)=O)c2ccccc2)s1 (centres unmarked),-24.89%,-
Cn1ccnc1-c1ccc(NCc2cn3c(n2)SCC3)nn1,18.61% and -0.5138%,-
Fc1ccc(C(NCc2nnc(-c3ccco3)o2)C2CCC2)cc1 (centres unmarked),60.87%,-
CN(C)c1nc2c(c(N3CCc4ccccc4C3)n1)CCNC2,59.44%,39.95% and 39.02%
CO[C@@H]1CCN(Cc2ccoc2)C[C@@H]1Cc1ccccc1.O=C(O)C(F)(F)F,5.26%,-
Cc1ccc(-n2cc(CN3CCOCC3)c(-c3cccc(C)c3)n2)cc1,44.6%,-
Cc1cnn(C2CCCN(C(=O)c3ccnc(N(C)C)c3)C2)c1 (centres unmarked),-,99.67%
c1ccc(C(NCc2nnc(-c3ccco3)o2)C2CCC2)cc1 (centres unmarked),52.25%,-
CC(c1ccccn1)N(C)C(=O)NCCn1c(=O)oc2ccccc21 (centres unmarked),-,60.36%
CN(CC(N)=O)S(=O)(=O)c1ccc(F)cc1F,21.56%,-
CC(C)Oc1ccc(CNC(=O)C2CCS(=O)(=O)C2)cn1 (centres unmarked),-40.29%,-8.315% and 9.045%
O=C(CNc1ccc(F)cc1OCC(F)(F)F)NCc1ccco1,19%,15.16% and 13.49%
CC(C)CC(NC(=O)Nc1ccc(F)c(Cl)c1)C(=O)O (centres unmarked),4.658% and 0.4043%,8.272%
CCCn1ccnc1CN1CCCC1c1cccc(-n2ccnc2)n1 (centres unmarked),18.86%,-
CC(Cn1cccn1)NCc1nc(-c2ccccn2)no1 (centres unmarked),-14.55%,-22.43%
Cc1nsc(C(=O)NCCc2ccccc2)n1,54.04%,54.94%
CN(C)c1nc(N)nc(CN2CCCC2c2cccs2)n1 (centres unmarked),0.4608%,-
O=S(=O)(CCN1CCN(c2ccccc2O)CC1)c1ccc(Br)cc1,21.78%,8.497%
c1ccc2c(c1)CCN(c1nc(-c3ccncc3)nc3c1CCNC3)C2,63.42%,50.62% and 57.73%
Cc1nsc(C(=O)NCCc2ccc(Cl)cc2)n1,47.89%,62.99%
COc1cccc(CN2CCCC(Nc3cccc(F)c3)C2)c1O (centres unmarked),56.03%,-
[H][C@]12CCN(C(=O)c3ccccc3F)C[C@@]1([H])OCCN(c1ncccn1)C2,-12.15%,-
O=C(CN1CCCC(c2ccn[nH]2)C1)Nc1nc2c(s1)CCC2 (centres unmarked),37.19%,17.91%
CC(C)n1cnc(C2CN(C)c3ccc(C(=O)NCC4CC4)cc32)n1 (centres unmarked),-,77.54% and -21.96%
Cc1ccc(N2Cc3cnn(Cc4ccc(F)cc4)c3C2)nn1,-,13.52% and 16.91%
O=C(CCN1CCN(c2ccc3nncn3n2)CC1)N1CCCCC1,-15.97%,-
COc1ccc(CC(C)Nc2cccc(F)c2)cc1 (centres unmarked),5.859%,39.77%
O=C(CCC(F)(F)F)N1CCCC(CO)(CC2CC2)C1 (centres unmarked),51.95% and 41.89%,51.76%
COC[C@H]1CCCN1c1nccc(-c2cnn(-c3ccccc3C)c2)n1,57.19% and 50.56%,-
Cc1cccc(Cc2cc(C)nc(C3CCCNC3)c2)c1 (centres unmarked),57.01%,-
CCOc1c(F)cccc1C(=O)N(C)CCn1cccn1,3.592% and 10.6%,-
CCCNC(=O)c1cc(C(C)C)nc(N2CCCCC2)n1,-10.78%,-
COc1ccc(C[C@H]2CN(c3cc(OC)ncn3)CC[C@H]2OC)cc1.O=C(O)C(F)(F)F,28.98% and 24.29%,8.975%
CCc1nnsc1C(=O)N(C)Cc1ccc(Br)o1,-3.194%,-
CCCc1nc(C(=O)N2CCN(C(=O)c3ccc(OC)cc3)CC2)cs1,-4.877% and -17.22%,-
COC(=O)COn1c(SC(C)C)nc2ccccc2c1=O,82.4%,-
[H][C@]12CC[C@]([H])(CN(Cc3cccc(-n4cccn4)c3)C1)N(CCC)C2,37.74%,21.06%
Cn1cccc(NC(=O)COc2ccc(Cl)cc2)c1=O,-5.4% and 6.946%,-6.796%
CC(C)CN1CC(C(=O)NCCNc2ncccn2)CC1=O (centres unmarked),-,-8.781%
COc1cccc(N2Cc3nc(=O)n(C(C)C)n3C2=O)c1,60.22%,-
Cc1ccc(CN2CCCC3(CCN(Cc4ccc(C)o4)C3)C2)o1 (centres unmarked),-20.63%,-
Cc1nc2ccccc2nc1CN(C)CC1CCCN1c1cccnn1 (centres unmarked),5.694%,-
COCCC(=O)N1CCCC(CCc2ccc(F)c(F)c2)C1 (centres unmarked),33.26%,29.39%
N#Cc1ccc(CN2CCN(C(=O)c3cc(C4CC4)[nH]n3)CC2)cc1,34.05%,-
COC(=O)CCC(=O)N1CCC2(CN(Cc3ccc(Cl)cc3)C2)C1,-16.74%,-
Cc1cc(NCCC(=O)NC2CCCCC2)nc(-c2ccncc2)n1,8.08%,-

Once more, the final 7:

COc1cccc(N2Cc3nc(=O)n(C(C)C)n3C2=O)c1 read Mtb glucose medium: 60.22%.
Cc1ccc(CN2CCCC3(CCN(Cc4ccc(C)o4)C3)C2)o1 (centres unmarked) read Mtb glucose medium: -20.63%.
Cc1nc2ccccc2nc1CN(C)CC1CCCN1c1cccnn1 (centres unmarked) read Mtb glucose medium: 5.694%.
COCCC(=O)N1CCCC(CCc2ccc(F)c(F)c2)C1 (centres unmarked) read Mtb glucose medium: 33.26%; Mtb cholesterol medium: 29.39%.
N#Cc1ccc(CN2CCN(C(=O)c3cc(C4CC4)[nH]n3)CC2)cc1 read Mtb glucose medium: 34.05%.
COC(=O)CCC(=O)N1CCC2(CN(Cc3ccc(Cl)cc3)C2)C1 read Mtb glucose medium: -16.74%.
Cc1cc(NCCC(=O)NC2CCCCC2)nc(-c2ccncc2)n1 read Mtb glucose medium: 8.08%.